A mixed list of measured activities; the numbers were collected in NIAID ChemDB.

All rows: whole-cell or culture tests; agent: HIV-1; measure: EC50

Rows are shuffled and stem from different studies. ECn: concentration that inhibits the pathogen or its effect by n%. Blank or dashed fields: not listed here.

compound | cells | read by | strain or isolate | changes | result
CC(C)C1=C2[C@H]3CC[C@@H]4[C@@]5(C)CC[C@H](OC(=O)[C@H]6C[C@@H](C(=O)O)C6(C)C)C(C)(C)[C@@H]5CC[C@@]4(C)[C@]3(C)CC[C@@]2([C@@H](O)CNC(=O)CN2CCOCC2)CC1=O | MT-2 | p24 / ELISA | 92HT599 | - | <1 µM
O=C1O/C(=C\Cn2cc(C(F)(F)F)c(=O)[nH]c2=O)C(O)=C1O | MT-4 | - | - | - | >50 µg/mL
Cn1c2ccccc2c2c1cc(C#N)c(=O)n2-c1ccc([N+](=O)[O-])cc1 | MT-4 | reporter gene | - | - | 0.03 µM
CC(C)C1=C2[C@H]3CC[C@@H]4[C@@]5(C)CC[C@H](OC(=O)[C@H]6C[C@@H](C(=O)O)C6(C)C)C(C)(C)[C@@H]5CC[C@@]4(C)[C@]3(C)CC[C@@]2([C@@H](O)CNCc2ccc(Cl)c(Cl)c2)CC1=O | MT-2 | p24 / ELISA | 92HT599 | - | <1 µM
C=C(C)[C@@H]1CC[C@]2(NC(=O)NC(C)(C)C)CC[C@]3(C)[C@H](CC[C@@H]4[C@@]5(C)CC[C@H](OC(=O)CC(C)(C)C(=O)O)C(C)(C)[C@@H]5CC[C@]43C)[C@@H]12 | MT-2 | RT activity | IIIB | - | >0.199 µM
C=C(CC[C@@H](C)[C@H]1CCC2C3=C([C@@H](O)[C@H](OC(C)=O)[C@@]21C)[C@@]1(C)C[C@@H](O)[C@H](OS(=O)(=O)O)C(C)(C)[C@@H]1CC3)C(C)C | H9 | antigen | - | - | <50 µM
O=C1/C(=C\c2ccc(O)cc2)N(CCc2cccs2)C(=S)N1CCc1cccs1 | MT-4 | MTT | IIIB | - | >13.25 µg/mL
c1ccc(SCc2nc3ccccc3o2)cc1 | CEM + CEM-SS | cytopathic effect / XTT | RF | - | 35.3 µM
CC1Cn2c(=O)[nH]c3cccc(c32)CN1CCO | MT-4 | cytopathic effect / MTT | IIIB | - | >776 µM
COc1ccc(CCN2C(=O)/C(=C\c3ccccc3)N(CCc3ccc(OC)c(OC)c3)C2=S)cc1OC | MT-4 | cytopathic effect / MTT | IIIB | - | >62.95 µg/mL
CC1Cn2c(=O)[nH]c3cccc(c32)CN1Cc1ccc[nH]1 | MT-4 | cytopathic effect / MTT | IIIB | - | >92 µM
Cc1ccnc(SC(F)(F)c2nc3ccccc3o2)n1 | CEM + CEM-SS | cytopathic effect / XTT | OC(RT-L100I) | RT-L100I | 0.38 µM
CC(C)[C@]12C=C[C@](C)(CC1)[C@H]1C(=O)N(NC(=S)Nc3ccccc3)C(=O)[C@H]12 | MT-4 | cytopathic effect / MTT | IIIB | - | >60 µM
Cc1cc(C(=O)NCC[C@@]23CC[C@]4(C)[C@H](CC[C@@H]5[C@@]6(C)CC[C@H](OC(=O)[C@H]7C[C@@H](C(=O)O)C7(C)C)C(C)(C)[C@@H]6CC[C@]54C)C2=C(C(C)C)C(=O)C3)n[nH]1 | MT-2 | p24 / ELISA | 92HT599 | - | <1 µM
CC(C)[C@]12C=C[C@](C)(CC1)[C@H]1C(=O)N(N)C(=O)[C@H]12 | MT-4 | cytopathic effect / MTT | IIIB | - | >100 µM
O=C1OC(C(O)Cn2cc(F)c(=O)[nH]c2=O)C(OCc2ccccc2)=C1OCc1ccccc1 | MT-4 | - | - | - | >50 µg/mL
CC(=O)N1Cc2cccc3[nH]c(=O)n(c23)CC1C | MT-4 | cytopathic effect / MTT | IIIB | - | >175 µM
COc1ccc(NC(=O)NN2C(=O)[C@H]3[C@H]4C=C(C)[C@H](C[C@@H]4C(C)C)[C@H]3C2=O)cc1 | MT-4 | cytopathic effect / MTT | IIIB | - | >46 µM
CC(C)C1=C2[C@H]3CC[C@@H]4[C@@]5(C)CC[C@H](OC(=O)[C@H]6C[C@@H](C(=O)O)C6(C)C)C(C)(C)[C@@H]5CC[C@@]4(C)[C@]3(C)CC[C@@]2([C@@H](O)CNC(=O)C2(NC(=O)c3ccc(Cl)cc3)COC2)CC1=O | MT-2 | p24 / ELISA | 92HT599 | - | <1 µM
C#CC(C)=CCN1Cc2cccc3[nH]c(=O)n(c23)CC1C | MT-4 | cytopathic effect / MTT | IIIB | - | >707 µM
Cc1cn([C@@H]2O[C@H](CO)[C@]3(N=[N+]=[N-])CO[C@H]23)c(=O)[nH]c1=O | MT-4 | cytopathic effect / MTT | IIIB | - | >300 µM
O=C1/C(=C\c2cccc(Oc3ccc(-c4ccccc4)cc3)c2)N(CCc2cccs2)C(=S)N1CCc1cccs1 | MT-4 | MTT | IIIB | - | >81.95 µg/mL
O=C1O/C(=C\Cn2ccc(=O)[nH]c2=O)C(OCc2ccccc2)=C1O | MT-4 | - | - | - | >50 µg/mL
O=C1/C(=C\c2ccc(Cl)cc2)N(CCc2cccs2)C(=S)N1CCc1cccs1 | MT-4 | MTT | IIIB | - | >103 µg/mL
CC(C)C1=C2[C@H]3CC[C@@H]4[C@@]5(C)CC[C@H](OC(=O)[C@H]6C[C@@H](C(=O)O)C6(C)C)C(C)(C)[C@@H]5CC[C@@]4(C)[C@]3(C)CC[C@@]2([C@@H](O)CNCCc2ccc(Cl)cc2)CC1=O | MT-2 | p24 / ELISA | 92HT599 | - | <1 µM
C=C(CC[C@@H](C)[C@H]1CC=C2C3=C([C@@H](O)[C@H](OC(C)=O)[C@@]21C)[C@@]1(C)C[C@@H](OC(=O)CCC(=O)O)[C@H](O)C(C)(C)[C@@H]1CC3)C(C)C | H9 | antigen | - | - | <6 µM
C[C@H](CCC(=O)N[C@@H](Cc1cc(I)c(O)cc1I)C(=O)O)[C@H]1CC[C@H]2[C@@H]3[C@H](O)CC4C[C@H](O)CC[C@]4(C)[C@H]3CC[C@]12C | H9 | syncytia | IIIB | - | <0.001 µg/mL
COc1ccc(CCN2C(=O)/C(=C\c3ccc(N(C)C)cc3)N(CCc3ccc(OC)c(OC)c3)C2=S)cc1OC | MT-4 | cytopathic effect / MTT | IIIB | - | >17.7 µg/mL
C#C/C(C)=C/CN1Cc2cccc3[nH]c(=O)n(c23)CC1C | MT-4 | cytopathic effect / MTT | IIIB | - | >18 µM
COc1ccc(CCN2C(=O)/C(=C\c3cc(OC)c(OC)c(OC)c3)N(CCc3ccc(OC)c(OC)c3)C2=S)cc1OC | MT-4 | cytopathic effect / MTT | IIIB | - | >13.45 µg/mL
FC(F)(Sc1ncccn1)c1nc2ccccc2o1 | CEM + CEM-SS | cytopathic effect / XTT | RF | - | 3.14 µM
C=C(C)[C@@H]1CC[C@]2(NC(=O)N[C@@H](C(=O)O)C(C)C)CC[C@]3(C)[C@H](CC[C@@H]4[C@@]5(C)CC[C@H](OC(=O)CC(C)(C)CC(=O)O)C(C)(C)[C@@H]5CC[C@]43C)[C@@H]12 | MT-2 | - | IIIB | - | <0.199 µM
O=C(NCc1ccc(F)cc1)C1C(=O)N(O)C(=O)c2ccccc21 | MT-4 | - | - | - | 2.34 µM
CN1C(=O)[C@]2(C[C@@H]2c2ccc(Cl)cc2)c2ccccc21 | MT-4 | MTT | IIIB | - | >7.6 µg/mL
COc1ccc(CCN2C(=O)/C(=C\c3ccc(F)cc3)N(CCc3ccc(OC)c(OC)c3)C2=S)cc1OC | MT-4 | cytopathic effect / MTT | IIIB | - | >18.5 µg/mL
C=C(CN1Cc2cccc3[nH]c(=O)n(c23)CC1C)C(=O)OCC | MT-4 | cytopathic effect / MTT | IIIB | - | >3 µM
COc1ccc(NC(=S)NN2C(=O)[C@H]3[C@H]4C=C(C)[C@H](C[C@@H]4C(C)C)[C@H]3C2=O)cc1 | MT-4 | cytopathic effect / MTT | IIIB | - | >52 µM
COc1ccc(/C=C2\C(=O)N(CCc3ccc(OC)c(OC)c3)C(=S)N2CCc2ccc(OC)c(OC)c2)cc1 | MT-4 | cytopathic effect / MTT | IIIB | - | >78.75 µg/mL
CC(C)OCCN1Cc2cccc3[nH]c(=O)n(c23)CC1C | MT-4 | cytopathic effect / MTT | IIIB | - | >504 µM
O=C1/C(=C\c2cccc([N+](=O)[O-])c2)N(CCc2cccs2)C(=S)N1CCc1cccs1 | MT-4 | MTT | IIIB | - | >100 µg/mL
CCCCCCCCCCCC(=O)N(CCCCCCCCCCC(=O)O)CC(O)C(O)C(O[C@@H]1O[C@H](CO)[C@H](O)[C@H](O)[C@H]1O)C(O)CO | C8166 | syncytia | LAI | - | <201 µM
CC(C)C1=C2[C@H]3CC[C@@H]4[C@@]5(C)CC[C@H](OC(=O)[C@H]6C[C@@H](C(=O)O)C6(C)C)C(C)(C)[C@@H]5CC[C@@]4(C)[C@]3(C)CC[C@@]2(CCNCC(C)(C)NC(=O)c2cncnc2)CC1=O | MT-2 | p24 / ELISA | 92HT599 | - | <1 µM
O=C1/C(=C\c2ccc(C3=CC=C3)cc2)N(CCc2cccs2)C(=S)N1CCc1cccs1 | MT-4 | MTT | IIIB | - | >58.03 µg/mL
C=C(C)[C@@H]1CC[C@]2(NC(=O)NC(=O)OC)CC[C@]3(C)[C@H](CC[C@@H]4[C@@]5(C)CC[C@H](OC(=O)CC(C)(C)C(=O)O)C(C)(C)[C@@H]5CC[C@]43C)[C@@H]12 | MT-2 | RT activity | IIIB | - | >0.199 µM
C=C1CN(S(=O)(=O)c2ccc(C)cc2)CCCN(Cc2ccccc2)CCCN(S(=O)(=O)c2ccc(C)cc2)C1 | PBMC | cytopathic effect | IIIB | - | 0.6 µM

The first 6 rows once more:

compound | cells | read by | strain or isolate | changes | result
CC(C)C1=C2[C@H]3CC[C@@H]4[C@@]5(C)CC[C@H](OC(=O)[C@H]6C[C@@H](C(=O)O)C6(C)C)C(C)(C)[C@@H]5CC[C@@]4(C)[C@]3(C)CC[C@@]2([C@@H](O)CNC(=O)CN2CCOCC2)CC1=O | MT-2 | p24 / ELISA | 92HT599 | - | <1 µM
O=C1O/C(=C\Cn2cc(C(F)(F)F)c(=O)[nH]c2=O)C(O)=C1O | MT-4 | - | - | - | >50 µg/mL
Cn1c2ccccc2c2c1cc(C#N)c(=O)n2-c1ccc([N+](=O)[O-])cc1 | MT-4 | reporter gene | - | - | 0.03 µM
CC(C)C1=C2[C@H]3CC[C@@H]4[C@@]5(C)CC[C@H](OC(=O)[C@H]6C[C@@H](C(=O)O)C6(C)C)C(C)(C)[C@@H]5CC[C@@]4(C)[C@]3(C)CC[C@@]2([C@@H](O)CNCc2ccc(Cl)c(Cl)c2)CC1=O | MT-2 | p24 / ELISA | 92HT599 | - | <1 µM
C=C(C)[C@@H]1CC[C@]2(NC(=O)NC(C)(C)C)CC[C@]3(C)[C@H](CC[C@@H]4[C@@]5(C)CC[C@H](OC(=O)CC(C)(C)C(=O)O)C(C)(C)[C@@H]5CC[C@]43C)[C@@H]12 | MT-2 | RT activity | IIIB | - | >0.199 µM
C=C(CC[C@@H](C)[C@H]1CCC2C3=C([C@@H](O)[C@H](OC(C)=O)[C@@]21C)[C@@]1(C)C[C@@H](O)[C@H](OS(=O)(=O)O)C(C)(C)[C@@H]1CC3)C(C)C | H9 | antigen | - | - | <50 µM